Results of unrelated studies side by side (data: NIAID ChemDB).

All rows: whole-cell or culture tests; species: Rhinovirus; endpoint: EC50

ECn is the concentration giving n% inhibition of infection, replication or growth. Neighbouring rows are from separate reports.

COc1ccc(Cn2cnc3c(N(C)C)nc(C(F)(F)F)nc32)cc1C ; read by: plaque count ; cell line: M-HELA ; strain: Serotype 5 ; value: >8 µM
CCOC(=O)c1ccc(OCCOc2ccc(-c3snc(SC)c3C#N)cc2)cc1 ; read by: cytopathic effect ; cell line: HELA-OHIO ; strain: Serotype 59 (group B) ; value: >2 µM
CN(C)c1nc(C(F)(F)F)nc2c1ncn2Cc1ccccc1 ; read by: plaque count ; cell line: M-HELA ; strain: Serotype 1B ; value: 0.04 µM
CSc1nsc(-c2ccc(OS(=O)(=O)c3ccc(C)cc3)cc2)c1C#N ; read by: cytopathic effect ; cell line: HELA-OHIO ; strain: Serotype 14 (group A) ; value: >25 µM
CSc1nsc(-c2ccc(OCCCOc3ccccc3)cc2)c1C#N ; read by: cytopathic effect ; cell line: HELA-OHIO ; strain: Serotype 2 (group B) ; value: >20 µM
CSc1nsc(-c2ccccc2)c1C#N ; read by: cytopathic effect ; cell line: HELA-OHIO ; strain: Serotype 41 (group B) ; value: >80 µM
CCOC(=O)c1ccc(OCCCOc2ccc(-c3snc(SC)c3C#N)cc2)cc1 ; read by: cytopathic effect ; cell line: HELA-OHIO ; strain: Serotype 70 (group A) ; value: 0.5 µM
CSc1ccc(Cn2cnc3c(N(C)C)nc(C(F)(F)F)nc32)cc1 ; read by: plaque count ; cell line: M-HELA ; strain: Serotype 3 ; value: >8 µM
CSc1nsc(-c2ccc(OCc3ccccc3)cc2)c1C#N ; read by: cytopathic effect ; cell line: HELA-OHIO ; strain: Serotype 89 (group B) ; value: 2 µM
Cc1cc(CCCCCOc2c(Cl)cc(C3=NCCO3)cc2Cl)on1 ; read by: plaque count ; cell line: HeLa ; strain: TYPE 78 ; value: 0.012 µg/mL
CSc1nsc(-c2ccc(OCCOc3ccccc3)cc2)c1C#N ; read by: cytopathic effect ; cell line: HELA-OHIO ; strain: Serotype 51 (group B) ; value: >20 µM
Cc1ccccc1Cn1cnc2c(N(C)C)nc(C(F)(F)F)nc21 ; read by: plaque count ; cell line: M-HELA ; strain: Serotype 4 ; value: >8 µM
CCOC(=O)/C=C/[C@H](C[C@@H]1CCNC1=O)NC(=O)[C@@H](CC(=O)[C@@H](NC(=O)c1cc(C)on1)C(C)C)Cc1ccc(F)cc1 ; read by: cytopathic effect / visual reading ; cell line: OHIO HELA-I ; strain: Isolate 24 ; value: 0.02 µg/mL
CCN(c1cccc(F)c1)c1nc(C(F)(F)F)nc2c1ncn2Cc1cccc(F)c1 ; read by: plaque count ; cell line: M-HELA ; strain: Serotype 4 ; value: >10 µM
CSc1nsc(-c2ccc(OCCCCOc3ccc(C#N)cc3)cc2)c1C#N ; read by: cytopathic effect ; cell line: HELA-OHIO ; strain: Serotype 45 (group A) ; value: >2 µM
CSc1nsc(-c2ccc(O)cc2)c1C#N ; read by: cytopathic effect ; cell line: HELA-OHIO ; strain: Serotype 85 (group B) ; value: >10 µM
Cc1ccc(Cn2cnc3c(N(C)C)nc(C(F)(F)F)nc32)c(C)c1 ; read by: plaque count ; cell line: M-HELA ; strain: Serotype 30 ; value: >8 µM
Fc1cccc(Cn2cnc3c(Nc4cccc(F)c4)nc(C(F)(F)F)nc32)c1 ; read by: plaque count ; cell line: M-HELA ; strain: Serotype 20 ; value: 11 µM
CCO/N=C/c1ccc(OCCC2CCN(c3ccc(Cl)nn3)CC2)cc1 ; read by: neutral red ; cell line: KB ; strain: FO2-2547 (ICAM-1 receptor group 70) ; value: >7.474 µM
CN(C)c1ccc(Cn2cnc3c(N(C)C)nc(C(F)(F)F)nc32)cc1 ; read by: plaque count ; cell line: M-HELA ; strain: TYPE 1B ; value: 0.29 µM

2 of the rows above, restated:

SMILES	read by	cell line	strain	value
Cc1ccccc1Cn1cnc2c(N(C)C)nc(C(F)(F)F)nc21	plaque count	M-HELA	Serotype 4	>8 µM
CSc1nsc(-c2ccccc2)c1C#N	cytopathic effect	HELA-OHIO	Serotype 41 (group B)	>80 µM